Source: US8466177B2 (priority 2007, dated 2013)
pEC50: −log10 of the molar value.

Tested on: A/NWS/G70C (H1N9)
Conditions: plaque reduction

SMILES: O=C1/C(=C/c2ccc(-c3ccc(F)cc3)o2)SC(=S)N1C1CCCCC1 [A1, (Z)-3-Cyclohexyl-5-{[5-(4-fluorophenyl)furan-2-yl]-methylene}-2-thioxothiazolidin-4-one]
- pEC50: 9.00
